Compound potency records, mixed from different reports. Data source: NIAID ChemDB in PubChem.

Common to all: whole-cell or culture tests; species: Mycobacterium tuberculosis

Blank or dashed fields: not listed here. Conditions beyond the fields shown may differ between rows. MIC bound: limit read from a one-dose screen. MIC50, MIC90 and the like: level of inhibition, or share of isolates inhibited. Percent inhibition refers to the dose given; in toxicity tests it is the harm to the cells. ECn is the concentration giving n% inhibition of infection, replication or growth.

smiles,tested at,method,endpoint,strain or isolate,conditions,result
Cc1cc(C)cc(Oc2ccc([N+](=O)[O-])c3cccnc23)c1,-,-,MIC,H37Rv,-,10 µg/mL
O=C(O)CCCCCN1CSC(=S)N(C2CC2)C1,-,-,MIC,H37Rv,-,25 µg/mL
Cc1ccc2c(c1)C(=O)C(=O)N2CC#CCN1CCN(c2ccnc3cc(Cl)ccc23)CC1,-,-,MIC99,MC2 6230,-,54.58 µM
O=C(c1ccncc1)N1N=C(c2ccccc2)CC1(O)C(F)(F)F,-,-,MIC,RGH104,-,18.66 µM
COc1ccc(C(=O)/C=C/c2ccc(F)cc2)c(F)c1,-,MTT,MIC,H37Rv,14 d,32 µg/mL
O=c1oc2ccc(Cl)cc2c(=S)n1-c1ccc(C(F)(F)F)cc1,-,-,MIC,My 331/88,21 d,4 µM
O=c1[nH]nc(Nc2ccc(Cl)cc2)c2nnn(C3CCCCC3)c12,-,resazurin,MIC bound,H37Rv,-,>6.25 µg/mL
O=C1C(=O)N(CCCCN2CCN(c3ccnc4cc(Cl)ccc34)CC2)c2ccccc21,-,-,MIC99,MC2 6230,-,55.8 µM
O=c1oc2ccc(Br)cc2c(=S)n1-c1ccc(F)cc1,-,-,MIC,My 331/88,21 d,2 µM
CCCCC/C=C\C/C=C\CCCCCCCC(=O)O,-,-,MIC,-,-,50 µM
Cc1cc(Oc2ccc([N+](=O)[O-])c3cccnc23)cc(C)c1Cl,-,-,MIC,H37Rv,-,1 µg/mL
Cc1ccc(N=Nc2c(N)c(C)cc(N=Nc3ccc(Sc4ccc(N=Nc5ccc(O)c(C(=O)[O-])c5)cc4)cc3)c2N)cc1.[Na+],-,BACTEC,MIC bound,H37Rv,-,>12.5 µg/mL
Nc1ccc(Sc2cccc(Cl)c2Cl)c2ncccc12,-,-,MIC,H37Rv,-,>200 µg/mL
COc1ccc2oc(=S)n(-c3ccc(F)cc3)c(=S)c2c1,-,-,MIC,My 331/88,21 d,32 µM
O=[N+]([O-])c1ccc(-c2cn3cc(Cl)sc3n2)cc1,6.25 µg/mL,-,inhibition,H37Rv,-,24%
Cl.O=C(NCCCCCCNC(=O)N1CCCCC1)c1cccnc1,12.5 µg/mL,BACTEC,inhibition,H37Rv,-,0%
Fc1ccc2oc(=S)n(-c3ccc(C(F)(F)F)cc3)c(=S)c2c1,-,-,MIC,My 331/88,14 d,2 µM
Cc1c(-c2ccc(-c3ccccc3F)cc2)nc2ccc(F)cc2c1C(=O)O,-,BACTEC,MIC bound,H37Rv,-,>12.5 µg/mL
CC(=O)Oc1ccccc1C(=O)Nc1ncc([N+](=O)[O-])s1,-,visual reading,MIC,T spoligotype 53,-,17.3 µg/mL
Nc1ccc2nc3n(c(=O)c2c1)-c1ccccc1C3=O,-,-,MIC,H37Rv,-,5 µg/mL
C/C=c1\[nH]c(=O)/c(=C/C=C/C)[nH]c1=O,12.5 µg/mL,BACTEC,inhibition,H37Rv,-,2%
O=C1C(=O)N(CCCCN2CCN(c3ccnc4cc(Cl)ccc34)CC2)c2ccc(Cl)cc21,-,-,MIC99,MC2 6230,-,10.35 µM
O=[N+]([O-])c1cccc(/C=N/Nc2ccc3ccccc3n2)c1O,-,-,MIC,H37Ra,-,3.125 µM
O=C(/C=C/c1ccccc1)c1ccc(O)cc1,-,resazurin,MIC,H37Rv,21 d,32 µg/mL
Nc1c(Br)cc(Br)c2c1[nH]c(=O)c1ccccc12,12.5 µg/mL,BACTEC,inhibition,H37Rv,-,13%
C=C(C)O[C@H]1C[C@@]2(C)[C@@H](C[C@@H](O)[C@H]3[C@@]4(C)CC[C@@H](O)[C@@H](C)[C@@H]4CC[C@@]32C)/C1=C(\CCC=C(C)C)C(=O)[O-],-,-,MIC,H37Ra,-,1.56 µM
CCC(c1ccc(OCC(=O)N/N=C2\CCC3C4CCc5cc(O)ccc5C4CCC23C)cc1)C(CC)c1ccc(OCC(=O)N/N=C2\CCC3C4CCc5cc(O)ccc5C4CCC23C)cc1,12.5 µg/mL,BACTEC,inhibition,H37Rv,-,-19%
CCCCCCCCCCCCN1CN(CCC(=O)O)CSC1=S,-,-,MIC,H37Rv,-,12.5 µg/mL
COc1ccc(/C=N/NC(=O)C(=O)N/N=C/c2ccc(OC)cc2)cc1,-,BACTEC,MIC bound,H37Rv,-,>12.5 µg/mL
CCCCCCCCC(CC)OC(=O)c1cnc(Cl)cn1,-,-,MIC,ATCC 35828,-,1 µg/mL
COc1ccccc1-c1cn2ccsc2n1,6.25 µg/mL,-,inhibition,H37Rv,-,23%
CCCCCCC(C)c1ccc2c(c1)C(=O)c1nc3ccncc3c(=O)n1-2,-,-,MIC,H37Rv,-,0.015 µg/mL
CCCCCCCC(OC(=O)c1cnc(Cl)cn1)C(C)(C)C,-,-,MIC,ATCC 27294,-,4 µg/mL
O=[N+]([O-])c1ccc(S(=O)(=O)C2NC=CS2)c2ncccc12,-,-,MIC,H37Rv,-,40 µg/mL
FC(F)(F)c1cccc(-c2cn3ccsc3n2)c1,-,-,MIC,H37Rv,-,>6.25 µg/mL
COC(=O)C1=NC(=S)N=C(C(=O)OC)C1(C)C(=O)c1ccc(Cl)cc1,6.25 µg/mL,resazurin,inhibition,H37Rv,-,-9%
Nc1ccc(Sc2c(Cl)cccc2Cl)c2ncccc12,-,-,MIC,H37Rv,-,100 µg/mL
COc1ccc(OC)c(-c2cn3cc(Cl)sc3n2)c1,-,-,MIC,H37Rv,-,>6.25 µg/mL
O=C(/C=C/c1ccc(F)cc1Cl)c1ccc(F)cc1,-,MTT,MIC,H37Rv,14 d,32 µg/mL
O=C1C(=O)N(CCCCCN2CCN(c3ccnc4cc(Cl)ccc34)CC2)c2ccc(Cl)cc21,-,-,MIC99,MC2 6230,-,20.12 µM
COC(=O)c1c(C)ccc2c(O)c3c(cc12)C(=O)c1c2c(cc(O)c1C3=O)C1(C)OC(C)(O2)C(O)C(N(C)C)C1O,-,-,MIC,H37Ra,-,12.5 µM
CC1=NN(c2ccccc2)C(=O)C1N=Nc1ccc(S(=O)(=O)Nc2nnc(C)s2)cc1,-,BACTEC,MIC bound,H37Rv,-,≤12.5 µg/mL
CC(C)COC(=O)c1cnccn1,-,-,MIC,ATCC35801,-,4 µg/mL
Cc1ccc(-c2cn3ccsc3n2)cc1,-,-,MIC,H37Rv,-,>6.25 µg/mL
CCCCC(=O)N/N=C/c1c(O)ccc2ccccc12,12.5 µg/mL,BACTEC,inhibition,H37Rv,-,-7%
c1ccc(/C(=N/Nc2nc3ccccc3s2)c2ccccn2)cc1,-,-,MIC,H37Ra,-,1.56 µM
Clc1ccc(-c2cn3cc(Cl)sc3n2)cc1,6.25 µg/mL,-,inhibition,H37Rv,-,0%
Cc1ccc2c(c1)C(=O)C(=O)N2CCCCN1CCN(c2ccnc3cc(Cl)ccc23)CC1,-,-,MIC99,MC2 6230,-,54.11 µM
O=Nc1c(-c2ccc(Cl)cc2)nc2sccn12,-,-,MIC,H37Rv,-,0.39 µg/mL
CC(C)=C[C@@H]1C[C@H](C)[C@H]2CC[C@H](C)c3c2c1c(C)c1ncoc31,-,-,EC50,-,-,<12.5 µg/mL
CCn1cc(C(=O)O)c(=O)c2cc(F)c(N3CCNC(C)C3)c(F)c21,-,-,MIC,H37Ra,-,3.125 µM
Cc1cccc(Cl)c1Oc1ccc([N+](=O)[O-])c2cccnc12,-,-,MIC,H37Rv,-,10 µg/mL
Cc1ccc(C(=O)/C=C/c2ccccc2)cc1,-,resazurin,MIC,H37Rv,21 d,32 µg/mL
Cc1nc2ccccc2n1COC(Cn1ccnc1)c1ccc(Cl)cc1Cl,-,resazurin,MIC bound,H37Rv,-,>6.25 µg/mL
O=C(/C=C/c1ccccc1)c1ccccc1,-,MTT,MIC,H37Rv,7 d,32 µg/mL
OC(c1cc(C23CC4CC(CC(C4)C2)C3)nc2c(Cl)cc(Cl)cc12)C1CCCCN1,-,-,MIC,H37Ra,-,6.25 µM
CC1OCC2OC(C)OC(C(C3C(=O)CC(C)(C)CC3=O)C3C(=O)CC(C)(C)CC3=O)C2O1,-,BACTEC,MIC bound,H37Rv,-,>12.5 µg/mL
O=C(c1ccncc1)N1N=C(c2cccs2)CC1(O)C(Cl)(Cl)Cl,-,-,MIC,RGH101,-,>257 µM
O=C1c2ccccc2-n2c1nc1ccc(Cl)cc1c2=O,-,-,MIC,H37Rv,-,0.06 µg/mL
Oc1ccc(-c2cn3cc(Cl)sc3n2)cc1,6.25 µg/mL,-,inhibition,H37Rv,-,0%
O=c1cc2oc3cc(O)c(O)cc3c(-c3ccccc3)c-2cc1O,12.5 µg/mL,BACTEC,inhibition,H37Rv,-,12%
COc1ccc2oc(=O)n(-c3cccc(F)c3)c(=S)c2c1,-,-,MIC,My 331/88,14 d,16 µM
O=C(O)CCCN1CSC(=S)N(C2CC2)C1,-,-,MIC,H37Rv,-,25 µg/mL
FC(F)(F)c1cccc(-c2cn3cc(Cl)sc3n2)c1,6.25 µg/mL,-,inhibition,H37Rv,-,74%
COc1ccc(-c2c(C)c(C(=O)O)nc(-c3ccc4c(O)c(OC)c5c(c4n3)=NC(C)(C)N=5)c2N)c(O)c1OC,-,-,MIC,H37Ra,-,12.5 µM
O=C1C(=O)N(CCCCCCCN2CCN(c3ccnc4cc(Cl)ccc34)CC2)c2ccc(Cl)cc21,-,-,MIC99,MC2 6230,-,167 µM
Cc1c(N)nc([C@H](CC(N)=O)NC[C@H](N)C(N)=O)nc1C(=O)N[C@H](C(=O)N[C@H](C)[C@@H](O)[C@H](C)C(=O)N[C@H](C(=O)NCCc1nc(-c2nc(C(=O)NCCC[S+](C)C)cs2)cs1)[C@@H](C)O)C(O[C@@H]1O[C@@H](CO)[C@@H](O)[C@H](O)[C@@H]1O[C@H]1O[C@H](CO)[C@@H](O)[C@H](OC(N)=O)[C@@H]1O)c1cnc[nH]1,-,-,MIC,H37Ra,-,1.56 µM
COc1cccc2c1C(=O)c1c(O)c3c(c(O)c1C2=O)C[C@@](O)(/C(C)=N/NC(=O)CO)CC3OC1CC(N)C(O)C(C)O1.Cl,-,-,MIC,INH-r,-,12.5 µg/mL
COc1ccc(-c2oc3cc(O)cc(O)c3c(=O)c2OC)cc1,100 µg/mL,BACTEC,inhibition,H37Rv,-,98%
O=C1C(=O)N(CCCCN2CCN(c3ccnc4cc(Cl)ccc34)CC2)c2ccc(F)cc21,-,-,MIC99,MC2 6230,-,107 µM
O=[N+]([O-])c1ccc2c(c1)SC1=NN3C(O)COC(OCc4ccccc4)C3N12,12.5 µg/mL,BACTEC,inhibition,H37Rv,-,88%
Cc1ccc(C2=NN(C(=O)c3ccncc3)C(O)(C(F)(F)F)C2)cc1,-,-,MIC,RGH102,-,71.63 µM
CCOC(=O)CCC(NC(=O)c1ccc(Nc2nc3c([nH]2)c(=O)n(C)c(=O)n3C)cc1)C(=O)OCC,12.5 µg/mL,BACTEC,inhibition,H37Rv,-,1%
S=c1oc2ccc(Br)cc2c(=S)n1-c1ccccc1,-,-,MIC,My 331/88,14 d,2 µM
Cc1ccccc1Sc1ccc([N+](=O)[O-])c2cccnc12,-,-,MIC,H37Rv,-,40 µg/mL
COC(=O)C(=O)c1c(C(=O)OC)nc2nnc(N)n2c1-c1ccc(F)cc1,-,resazurin,MIC bound,H37Rv,-,>6.25 µg/mL
Cc1cccc2c(=O)n3c(nc12)C(=O)c1ccccc1-3,-,-,MIC,H37Rv,-,0.13 µg/mL
O=C1C(=O)N(c2ccc([N+](=O)[O-])cc2)C(=O)N1c1ccc([N+](=O)[O-])cc1,-,BACTEC,MIC bound,H37Rv,-,>12.5 µg/mL
Cc1cc(Oc2ccc([N+](=O)[O-])c3cccnc23)ccc1Cl,-,-,MIC,H37Rv,-,10 µg/mL
CCCCCCCCCCCCCCCCCCC(CC)C(=O)O,-,-,MIC,-,-,>1000 µM
O=C(c1ccncc1)N1N=CCC1(O)C(F)(F)F,-,-,MIC,RGH102,-,24.13 µM
COc1ccc2oc(=O)n(-c3cccc(Cl)c3)c(=S)c2c1,-,-,MIC,My 331/88,14 d,16 µM
Cc1ccccc1S(=O)(=O)c1ccc([N+](=O)[O-])c2cccnc12,-,-,MIC,H37Rv,-,100 µg/mL
COC(=O)[C@H]1[C@H](O)[C@H](C)[C@@H](O)[C@@H](C)/C=C(\C)C2=C3C(=C(C)C(=O)c4c(O)c(c(C)c(OC(C)=O)c43)NC(=O)/C(C)=C/C=C\[C@@H](C)C(O)[C@@H](C)[C@H]1O)OCO2,-,BACTEC,MIC bound,H37Rv,-,≤12.8 µg/mL
CCCCCCCC/C=C\CCCCCCCC(=O)O,-,-,MIC,-,-,50 µM

A second listing of 11 rows from above:

smiles | tested at | method | endpoint | strain or isolate | conditions | result
Cc1ccc(C(=O)/C=C/c2ccccc2)cc1 | - | resazurin | MIC | H37Rv | 21 d | 32 µg/mL
O=C1C(=O)N(CCCCCCCN2CCN(c3ccnc4cc(Cl)ccc34)CC2)c2ccc(Cl)cc21 | - | - | MIC99 | MC2 6230 | - | 167 µM
O=C(c1ccncc1)N1N=C(c2ccccc2)CC1(O)C(F)(F)F | - | - | MIC | RGH104 | - | 18.66 µM
COc1ccccc1-c1cn2ccsc2n1 | 6.25 µg/mL | - | inhibition | H37Rv | - | 23%
O=C1C(=O)N(c2ccc([N+](=O)[O-])cc2)C(=O)N1c1ccc([N+](=O)[O-])cc1 | - | BACTEC | MIC bound | H37Rv | - | >12.5 µg/mL
O=Nc1c(-c2ccc(Cl)cc2)nc2sccn12 | - | - | MIC | H37Rv | - | 0.39 µg/mL
COC(=O)[C@H]1[C@H](O)[C@H](C)[C@@H](O)[C@@H](C)/C=C(\C)C2=C3C(=C(C)C(=O)c4c(O)c(c(C)c(OC(C)=O)c43)NC(=O)/C(C)=C/C=C\[C@@H](C)C(O)[C@@H](C)[C@H]1O)OCO2 | - | BACTEC | MIC bound | H37Rv | - | ≤12.8 µg/mL
CCCCCCCCCCCCCCCCCCC(CC)C(=O)O | - | - | MIC | - | - | >1000 µM
COc1ccc2oc(=O)n(-c3cccc(F)c3)c(=S)c2c1 | - | - | MIC | My 331/88 | 14 d | 16 µM
O=c1cc2oc3cc(O)c(O)cc3c(-c3ccccc3)c-2cc1O | 12.5 µg/mL | BACTEC | inhibition | H37Rv | - | 12%
O=C1c2ccccc2-n2c1nc1ccc(Cl)cc1c2=O | - | - | MIC | H37Rv | - | 0.06 µg/mL